Results reported in patent US20060275317A1, “Vaccine compositions for prevention of chronic and infectious diseases” (Biokit S.A., priority 2003, published 2006).

Experiments:
[1] = tested on: antibodies in human syphilis sera; experiment: Syphilis hemagglutination assay with GST-Tp17 coated red cells supplemented with lysozyme; conditions: for effect on intensity of hemagglutination: 3 μg lysozyme/1 μg Tp17, borderline human syphilitic sera; for samples showing improvement in sensitivity of the assay: 594 units human lysozyme/μg GST-Tp17, 10 human syphilitic sera
[2] = tested on: anti-T. pallidum antibodies in human sera; experiment: Bioelisa Syphilis ELISA (second and third generation format) with added lysozyme

Substance: chicken lysozyme: purified chicken egg white lysozyme (Sigma-Aldrich; P00698)
- effect on intensity of hemagglutination [1]: did not enhance the response

Substance: recombinant human lysozyme: purified recombinant human lysozyme from transgenic rice (159-53LZ-90P; Ventria Bioscience)
- samples negative without lysozyme that were positive with lysozyme ([1]; 34 real positive samples): 14 of the 19
- false positive results ([1]; 200 blood bank samples): does not give false positives results
- samples showing improvement in sensitivity of the assay [1]: 6 out of the 10

Substance: natural human breast milk lysozyme: purified natural human breast milk lysozyme (L-6394; Sigma-Aldrich)
- samples showing improvement in sensitivity of the assay [1]: 6 out of the 10

Substance: human lysozyme: human lysozyme (NP_000230); breast milk (Sigma) or recombinant (Ventria) depending on the example
- effect on intensity of hemagglutination [1]: improves the intensity of hemagglutination
- response of syphilis-negative human sera [2]: does not modify the response
- increase in signal intensity ([2]; second generation format, lysozyme added to the plate at 2.86 μg/ml, syphilis-positive sera): about 20%
- increase in signal intensity ([2]; third generation format, lysozyme in sample and conjugate dilution buffer, 3 out of 4 sera): about 200%
